Results deposited as PubChem BioAssay AID504761 (Drosophila RNAi Screening Center, 2011).
The screen tested about 22,000 reagents; below is a random part of those that have a named target and a result. In the full data, 116 (0.52%) are marked active. 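Calls depend on retest data that are not deposited; infection was ranked per plate without normalising between plates; the unit of the infection score is not given.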 Raw values are not corrected between plates. Names joined by + are all predicted targets of the reagent. Further read-outs or replicates are left out here. Reagent sequences are not shown. Not stated in the record: the amount of reagent, the time to read-out.

- Screen: 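Fly genes whose silencing reduces dengue virus type 2 infection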 (primary screen)
- System: D.Mel-2 cells from Drosophila
- Reagent: long dsRNA against Drosophila genes
- Challenge: infection with dengue virus type 2; dose and infection time not stated
- Read-out: 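Cells stained for dengue envelope protein and imaged; percent of infected cells per well on duplicate plates, ranked by infection, with stained nuclei counted for cell number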
- Reading the numbers: infection score: higher = more virus-infected cells; cell count: higher = more cells in the well
- Rule for the call: 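Very low infection ranking in both replicate wells (chance probability at most 0.065), then a retest showing infection dropped 1.5-fold or more at p below 0.05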
- Calls: active = confirmed: knock-down lowers infection; inactive = not picked or not confirmed

CG6951 [DRSC10755] | infection score, replicate 1 = 12.5; cell count, replicate 1 = 6256; Call = inactive
CkIIbeta (Casein kinase II beta subunit) [DRSC20230] | infection score, replicate 1 = 6.51; cell count, replicate 1 = 5327; Call = inactive
CR32011 + CR32010 + PlexB + 1 more [DRSC21664] | infection score, replicate 1 = 1.32; cell count, replicate 1 = 5676; Call = inactive
CR32011 + CR32010 + PlexB + 1 more [DRSC26099] | infection score, replicate 1 = 6.34; cell count, replicate 1 = 5808; Call = inactive
CG9737 [DRSC16550] | infection score, replicate 1 = 8.6; cell count, replicate 1 = 5677; Call = inactive
cactin [DRSC20576] | infection score, replicate 1 = 2.87; cell count, replicate 1 = 2958; Call = inactive
CG13032 [DRSC09912] | infection score, replicate 1 = 2.6; cell count, replicate 1 = 6382; Call = inactive
CG10804 [DRSC17764] | infection score, replicate 1 = 9.22; cell count, replicate 1 = 6639; Call = inactive
Met75Ca + Met75Cb [DRSC09549] | infection score, replicate 1 = 2.31; cell count, replicate 1 = 5669; Call = inactive
Met75Ca + Met75Cb [DRSC11221] | infection score, replicate 1 = 3.13; cell count, replicate 1 = 6813; Call = inactive

2 entries from above, limited to “infection score, replicate 1”:
CG9737 [DRSC16550]	8.6
cactin [DRSC20576]	2.87

The listing continues:
CG17328 [DRSC01927] | infection score, replicate 1 = 7.82; cell count, replicate 1 = 5180; Call = inactive
CG17328 [DRSC22448] | infection score, replicate 1 = 2.72; cell count, replicate 1 = 6139; Call = inactive
CG17328 [DRSC25397] | infection score, replicate 1 = 1.92; cell count, replicate 1 = 6152; Call = inactive
CG14459 [DRSC23039] | infection score, replicate 1 = 1.09; cell count, replicate 1 = 6424; Call = inactive
CG3817 [DRSC15515] | infection score, replicate 1 = 5.43; cell count, replicate 1 = 6005; Call = inactive
CG3817 [DRSC27548] | infection score, replicate 1 = 9.14; cell count, replicate 1 = 6973; Call = inactive
CG16903 [DRSC18561] | infection score, replicate 1 = 7.57; cell count, replicate 1 = 2774; Call = inactive
CG2233 [DRSC18217] | infection score, replicate 1 = 10.5; cell count, replicate 1 = 6829; Call = inactive
CG31097 [DRSC14666] | cell count, replicate 1 = 394; Call = inactive
CG6686 [DRSC02979] | infection score, replicate 1 = 18.3; cell count, replicate 1 = 4117; Call = inactive
CG6686 [DRSC27705] | infection score, replicate 1 = 25.6; cell count, replicate 1 = 4472; Call = inactive
